Measurements reported in patent publication US8293489B2, “Methods for detection of biological substances” (priority 2007, dated 2012).

Tested on: BDNF
Assay: BDNF in plasma, urine, saliva and nasal mucus
Set-up: species or system human

B1: BDNF (protein, UniProt P23560 19-247, looked up)
Neurotrophic factor BDNF …: APMKEANIRGQGGLAYPGVRTHGTLESVNGPKAGSRGLTSLADTFEHVIEELLDEDQKVRPNEENNKDADLYTSRVMLSSQVPLEPPLLFLLEEYKNYLDAANMSMRVRRHSDPARRGELSVCDSISEWVTAADKKTAVDMSGGTVTVLEKVPVSKGQLKQYFYETKCNPMGYTKEGCRGIDKRHWNSQCRTTQSYVRALTMDSKKRIGWRFIRIDTSCVCTLTIKRGR
Q: What does the source list for B1?
A: BDNF (NASAL MUCUS): 11 ± 7 µg/mL; BDNF/PROTEIN (NASAL MUCUS): 8 ± 6; BDNF/PROTEIN (PLASMA): 447 ± 74; BDNF (PLASMA, (20) subjects): 3391 ± 530 µg/mL; BDNF (SALIVA): 0 µg/mL; BDNF (URINE): 0 µg/mL
